A mixed list of measured activities; the numbers were collected in NIAID ChemDB.

All rows: growth or infection tests; organism: Mycobacterium tuberculosis

Blank or dashed fields: not listed here.

SMILES	mutations	conditions	cell line	dose	method	endpoint	strain	value
Cc1c(C(=O)Nc2ccccc2)[n+](=O)c2cc(Cl)c(Cl)cc2n1[O-]			VERO			MIC	H37Rv	<0.78 µg/mL
O=C(CNS(=O)(=O)Cc1ccccc1)NCC(=O)NNc1ccccc1					BACTEC	MIC bound	H37Rv	>12.5 µg/mL
CC(C)=CCOc1c2ccoc2cc2oc(=O)ccc12	Isoniazid-resistant				resazurin	MIC100	H37Rv clinical isolate CRY1	200 µg/mL
CO[C@H]1/C=C/O[C@@]2(C)Oc3c(C)c(O)c4c(O)c(c(/C=N/N5CCN(C)CC5)c(O)c4c3C2=O)NC(=O)/C(C)=C\C=C\[C@H](C)[C@H](O)[C@@H](C)[C@@H](O)[C@@H](C)[C@H](OC(C)=O)[C@@H]1C						MIC	PR455	0.16 µg/mL
NNC(=O)c1ccc(N)cc1O				12.5 µg/mL	BACTEC	inhibition	H37Rv	90%
Cc1cccc(CC(=O)N2CCN(S(=O)(=O)c3cccc4cnccc34)CC2)c1	Inosine monophosphate dehydrogenase-resistant				resazurin	MIC90	SRMV2.6	>250 µM
CC(O)C1(O)C(O)CC(OC2c3cc4c(c(O)c3[C@@H]3C[C@@]2(C)OC32C=c3cc[nH]c3=N2)C(=O)c2cccc(O)c2C4=O)OC1C						MIC	INH-r	1.6 µg/mL
CN(C)CCCN1c2ccccc2Sc2ccc(Cl)cc21						MBC	H37Rv	40 µg/mL
NC(=O)c1cnccn1	Pyrazinamide-resistant	pH 6.6			resazurin	MIC90		>100 µM
O=C(NC1CCN(S(=O)(=O)c2cccc3cnccc23)CC1)C1CCCCC1	Inosine monophosphate dehydrogenase-resistant				resazurin	MIC90	SRMV2.6	>100 µM
CN[C@@H]1[C@@H](O)[C@@H](O[C@@H]2[C@@H](O)[C@H](O[C@H]3O[C@H](CN)CC[C@H]3N)[C@@H](N)C[C@H]2N)OC[C@]1(C)O				2 µg/mL		inhibition	H37Rv	inactive
CC(C)C(=O)C1C/C(=C/c2ccccn2)C(=O)/C(=C/c2cccnc2)C1					resazurin	MIC	18b	4 µg/mL
CO/N=C(\C)c1cccc(F)c1NS(=O)(=O)c1nc2c(F)cnc(OC)n2n1	INH RIF resistant				visual reading	MIC50	X24	1 µM
CCCCCCCCCCCCCCCC(=O)OCC1OC(CO)(OC2OC(CO)C(O)C(O)C2O)C(O)C1O				12.5 µg/mL	BACTEC	inhibition	H37Rv	-19%
O=C1c2cc(C(F)(F)F)ccc2-n2c1nc1ccncc1c2=O						MIC	H37Rv	0.03 µg/mL
O=C(OCCOC(=O)c1cnccn1)c1cnccn1	Pyrazinamide-resistant	pH 6.0			resazurin	MIC90		>365 µM
Cc1ccc2c(=O)c3ccccc3oc2c1				4 µg/mL		inhibition	H37Rv	inactive
COc1ncc(F)c2nc(S(=O)(=O)Nc3ncccc3C(C)=O)nn12	INH RIF resistant				visual reading	MIC50	X59	0.5 µM
C[C@@H]([C@H](NC(=O)[C@H](CC1CCCCC1)NC(=O)N[C@@H](Cc1c[nH]c2ccccc12)C(=O)O)C(=O)NC[C@H]1C[C@@H](O)[C@H](n2ccc(=O)[nH]c2=O)O1)N(C)C(=O)CN					resazurin / fluorescence	MIC50	H37Rv	0.09 µM
Cc1ccc(C2=Nn3c(nnc3C(C)C)SC2)cc1					resazurin	MIC	18b	8 µg/mL
CC1=C2CCC3(C)C(=C2OC1=O)C(C)=C(Cl)C(Cl)C3Cl				6.25 µg/mL	BACTEC	inhibition	H37Rv	0%
CCOC(=O)c1cnccn1	Pyrazinamide-resistant	pH 6.6			resazurin	MIC90		>657 µM
O=C(O)c1ccc2oc3c(C(=O)O)cc([N+](=O)[O-])cc3c(=O)c2c1				16 µg/mL		inhibition	H37Rv	inactive
Cc1cc2c(cc1C)[n+](=O)c(C(=O)N1CCN(Cc3ccccc3)CC1)c(C)n2[O-]						MIC	H37Rv	>6.25 µg/mL
CCCCCCNC(=O)[C@H](Cc1c[nH]c2ccccc12)NC(=O)N[C@@H](CC1CCCCC1)C(=O)N[C@H](C(=O)NC[C@H]1C[C@@H](O)[C@H](n2ccc(=O)[nH]c2=O)O1)[C@H](C)N(C)C(=O)CN					resazurin / fluorescence	MIC99	H37Rv	>0.5 µM
COc1cc(C)c2c(=O)c3c(oc2c1)C(=O)c1c(O)c(OC)cc(O)c1C3=O						MIC	ETA-R	12.5 µg/mL
Cc1ccc2c(c1)[n+](=O)c(C(=O)N1CCN(c3ccc([N+](=O)[O-])cc3)CC1)c(C)n2[O-]						MIC	H37Rv	>6.25 µg/mL
O=C(Cc1cccc(O)c1)N1CCN(S(=O)(=O)c2cccc3cnccc23)CC1	Inosine monophosphate dehydrogenase-resistant				resazurin	MIC90	SRMV2.6	>250 µM
CCCCCCC(/C=C/c1ccc(Cl)c(Cl)c1)=N\NC(=O)C[N+](C)(C)C				12.5 µg/mL	BACTEC	inhibition	H37Rv	27%
CCOc1cccc(C(=O)N(Cc2ccccc2)C2CCS(=O)(=O)C2)c1					resazurin	MIC	18b	4 µg/mL
Cc1cc(C)c2oc3ccc([N+](=O)[O-])cc3c(=O)c2c1[N+](=O)[O-]				4 µg/mL		inhibition	H37Rv	inactive
COc1c(OC/C=C(\C)CCC=C(C)C)ccc2ccc(=O)oc12					BACTEC	MIC bound	H37Rv	≤128 µg/mL
CCCCCCOC(=O)[C@H](Cc1c[nH]c2ccccc12)NC(=O)N[C@@H](Cc1ccc2ccccc2c1)C(=O)N[C@H](C(=O)NC[C@H]1C[C@@H](O)[C@H](n2ccc(=O)[nH]c2=O)O1)[C@H](C)N(C)C(=O)CN					resazurin / fluorescence	MIC99	H37Rv	0.076 µM
O=C(C1CCCCC1)N1CCN(S(=O)(=O)c2ccc3ccccc3c2)CC1					resazurin	MIC90	H37Rv	>100 µM
CN1c2ccc(Cl)cc2C(=O)NC1c1ccc([N+](=O)[O-])s1					resazurin	MIC bound	H37Rv	>6.25 µg/mL
CC(=O)N1N=C2C3CCN(CC3)C2C1c1cccc2ccccc12					resazurin	MIC	18b	16 µg/mL
O=C1c2cc(Cl)ccc2-n2c1nc1ccccc1c2=O						MIC	H37Rv	0.06 µg/mL
NCCCN1c2ccccc2Sc2ccccc21					resazurin	MIC	XDR-83	64 µg/mL
CC(C)[C@H]1C(=O)OC[C@@H](NC(=O)c2cnc3ccccc3n2)C(=O)N[C@@H](C)C(=O)N(C)[C@@H]2CSSC[C@H](C(=O)N1C)N(C)C(=O)[C@H](C)NC(=O)[C@H](NC(=O)c1cnc3ccccc3n1)COC(=O)[C@H](C(C)C)N(C)C2=O						MIC	ETA-R	0.8 µg/mL
N#Cc1cccc2oc3ccccc3c(=O)c12				8 µg/mL		inhibition	H37Rv	inactive
C/C(=N\NC(=O)C[n+]1ccccc1)c1sc(-c2nc(C)c(/C(C)=N/NC(=O)C[n+]3ccccc3)s2)nc1C.[Cl-]				12.5 µg/mL	BACTEC	inhibition	H37Rv	8%
N#Cc1ccc2oc3ccccc3c(=O)c2c1				8 µg/mL		inhibition	H37Rv	inactive
Cc1ccc2c(c1)[n+](=O)c(C(=O)Nc1ccccc1)c(C)n2[O-]				6.25 µg/mL		inhibition	H37Rv	62%
CC1(C)CC(=O)C2=C(C1)C1=Nc3ccccc3C1=C2					resazurin	MIC	18b	8 µg/mL
C[C@@H]([C@H](NC(=O)[C@H](Cc1ccc2ccccc2c1)NC(=O)N[C@@H](Cc1c[nH]c2ccccc12)C(=O)O)C(=O)NC[C@H]1C[C@@H](O)[C@H](n2ccc(=O)[nH]c2=O)O1)N(C)C(=O)CN					resazurin / fluorescence	MIC99	H37Rv	0.8 µM
O=C1c2cc(Cl)ccc2-n2c1nc1ncccc1c2=O						MIC	H37Rv	0.03 µg/mL
CO[C@H]1/C=C/O[C@@]2(C)Oc3c(C)c(O)c4c(O)c(cc(O)c4c3C2=O)NC(=O)/C(C)=C\C=C\[C@H](C)[C@H](O)[C@@H](C)[C@@H](O)[C@@H](C)[C@H](OC(C)=O)[C@@H]1C						MIC	H37Rv (thioamide-resistant)	6.3 µg/mL
C=C1C(OC(=O)C(C)C)C(O)C(=O)C(C)(C)/C=C\C(C)C(=O)C2(O)CC(C)C(OC(=O)CC)C2C1OC(=O)c1ccccc1				12.5 µg/mL	BACTEC	inhibition	H37Rv	7%
Cc1c(C(=O)N2CCN(Cc3ccccc3)CC2)[n+](=O)c2ccccc2n1[O-]						MIC	H37Rv	>6.25 µg/mL
CC1=NN(c2ccc(S(=O)(=O)O)cc2)C(=O)C1N=Nc1ccc(-c2ccc(N=Nc3ccc(O)c(C(=O)O)c3)c(C)c2)cc1C					BACTEC	MIC bound	H37Rv	>12.8 µg/mL
CO[C@H]1/C=C/O[C@@]2(C)Oc3c(C)c(O)c4c(O)c(c(/C=N/N5CCN(C)CC5)c(O)c4c3C2=O)NC(=O)/C(C)=C\C=C\[C@H](C)[C@H](O)[C@@H](C)[C@@H](O)[C@@H](C)[C@H](OC(C)=O)[C@@H]1C	Pyrazinamide-resistant	pH 6.6			resazurin	MIC90		>0.05 µM
CC1(C)COC(c2ccc3c(c2)C(=O)c2nc4ccncc4c(=O)n2-3)OC1						MIC	H37Rv	0.06 µg/mL
COC(=O)c1ccc2c(=O)c3cc([N+](=O)[O-])ccc3oc2c1C(=O)OC				2 µg/mL		inhibition	H37Rv	inactive
OC(c1cc(-c2ccc(C(F)(F)F)cc2)nc(-c2ccc(C(F)(F)F)cc2)c1)C1CCCCN1				6.25 µg/mL	resazurin	inhibition	H37Rv	100%
C[C@@H]([C@H](NC(=O)[C@H](Cc1ccc2ccccc2c1)NC(=O)N[C@@H](Cc1c[nH]c2ccccc12)C(=O)OCc1ccccc1)C(=O)NC[C@H]1C[C@@H](O)[C@H](n2ccc(=O)[nH]c2=O)O1)N(C)C(=O)CN					resazurin / fluorescence	MIC99	H37Rv	0.039 µM
CSc1ccc(NC(=O)c2cc3c(s2)CN(C2CC2)C3)cc1					resazurin	MIC	Clinical isolate	16 µg/mL
CC[C@H]1OC(=O)[C@H](C)[C@@H](O[C@H]2C[C@@](C)(OC)[C@@H](O)[C@H](C)O2)[C@H](C)[C@@H](O[C@@H]2O[C@H](C)C[C@H](N(C)C)[C@H]2O)[C@](C)(O)C[C@@H](C)C(=O)[C@H](C)[C@@H](O)[C@]1(C)O						MBC	H37Rv	40 µg/mL
O=C(O)C(=O)O.OC(CNCCc1ccccc1)CN1c2ccccc2Sc2ccccc21					resazurin	MIC	H37Rv	1.25 µg/mL
Cc1ccc2nc3n(c(=O)c2c1)-c1ccc(F)cc1C3=O						MIC	H37Rv	0.13 µg/mL
COc1cc2c(c(NC(C)CCCN=C(N)NC(N)=NC(C)C)c1)NCCC2					resazurin	MIC bound		<6.25 µg/mL
O=C1c2cc(F)ccc2-n2c1nc1ncccc1c2=O						MIC	H37Rv	0.25 µg/mL
CCOC(=O)N/N=C1\CCCCCC\C1=N/NC(=O)OCC					BACTEC	MIC bound	H37Rv	>12.5 µg/mL
O=C(C1CCCCC1)N1CCN(S(=O)(=O)c2cccc3ccccc23)CC1	Inosine monophosphate dehydrogenase-resistant				resazurin	MIC90	SRMV2.6	>100 µM
CCc1nc2ccc(NCCN(C)C)c3c(=O)c4ccccc4n1c23					BACTEC	MIC bound	H37Rv	≤12.5 µg/mL
NC1=NC(c2cc(F)cc(F)c2)n2c(nc3ccccc32)N1					resazurin	MIC	Clinical isolate	16 µg/mL
NC(=O)c1ccc(N=N[O-])nc1.[Na+]				12.5 µg/mL	BACTEC	inhibition	H37Rv	33%
O=C1c2ccccc2-n2c1nc1c(Br)cc(Br)c(F)c1c2=O						MIC	H37Rv	2 µg/mL
[N-]=[N+]=CC(=O)OC[C@@H]1NC(=O)[C@H](COC(=O)C=[N+]=[N-])NC1=O				12.5 µg/mL	BACTEC	inhibition	H37Rv	23%
CC[n+]1c(-c2ccccc2)c2cc(N)ccc2c2ccc(N)cc21					PCR	MIC	H37Rv (ATCC 27294)	64 µg/mL
COC1C(O)=C2C(=O)OC(C)(O)/C=C/C=C/C=C/C=C\C(c3ccccc3)NC(=O)/C=C/C=C/C=C/C=C/C2(C)C1O						MIC	INH-r	>12.5 µg/mL
C[C@@H]([C@H](NC(=O)[C@H](Cc1ccc2ccccc2c1)NC(=O)N[C@@H](Cc1c[nH]c2ccccc12)C(=O)OCC(C)(C)C)C(=O)NC[C@H]1C[C@@H](O)[C@H](n2ccc(=O)[nH]c2=O)O1)N(C)C(=O)CN					resazurin / fluorescence	MIC50	H37Rv	0.011 µM

For reference, 8 entries again:

SMILES,mutations,conditions,cell line,dose,method,endpoint,strain,value
O=C(O)c1ccc2oc3c(C(=O)O)cc([N+](=O)[O-])cc3c(=O)c2c1,,,,16 µg/mL,,inhibition,H37Rv,inactive
O=C1c2ccccc2-n2c1nc1c(Br)cc(Br)c(F)c1c2=O,,,,,,MIC,H37Rv,2 µg/mL
CO[C@H]1/C=C/O[C@@]2(C)Oc3c(C)c(O)c4c(O)c(c(/C=N/N5CCN(C)CC5)c(O)c4c3C2=O)NC(=O)/C(C)=C\C=C\[C@H](C)[C@H](O)[C@@H](C)[C@@H](O)[C@@H](C)[C@H](OC(C)=O)[C@@H]1C,Pyrazinamide-resistant,pH 6.6,,,resazurin,MIC90,,>0.05 µM
CC1=NN(c2ccc(S(=O)(=O)O)cc2)C(=O)C1N=Nc1ccc(-c2ccc(N=Nc3ccc(O)c(C(=O)O)c3)c(C)c2)cc1C,,,,,BACTEC,MIC bound,H37Rv,>12.8 µg/mL
COC(=O)c1ccc2c(=O)c3cc([N+](=O)[O-])ccc3oc2c1C(=O)OC,,,,2 µg/mL,,inhibition,H37Rv,inactive
[N-]=[N+]=CC(=O)OC[C@@H]1NC(=O)[C@H](COC(=O)C=[N+]=[N-])NC1=O,,,,12.5 µg/mL,BACTEC,inhibition,H37Rv,23%
C[C@@H]([C@H](NC(=O)[C@H](Cc1ccc2ccccc2c1)NC(=O)N[C@@H](Cc1c[nH]c2ccccc12)C(=O)OCc1ccccc1)C(=O)NC[C@H]1C[C@@H](O)[C@H](n2ccc(=O)[nH]c2=O)O1)N(C)C(=O)CN,,,,,resazurin / fluorescence,MIC99,H37Rv,0.039 µM
CO[C@H]1/C=C/O[C@@]2(C)Oc3c(C)c(O)c4c(O)c(c(/C=N/N5CCN(C)CC5)c(O)c4c3C2=O)NC(=O)/C(C)=C\C=C\[C@H](C)[C@H](O)[C@@H](C)[C@@H](O)[C@@H](C)[C@H](OC(C)=O)[C@@H]1C,,,,,,MIC,PR455,0.16 µg/mL

Lines come from different laboratories, so protocols vary. MIC50, MIC90 and the like: level of inhibition, or share of isolates inhibited. For "inactive" no cut-off is given. MIC bound comes from a single tested concentration. Inhibition is in % at the dose shown (toxicity tests: loss of growth or viability).